A mixed list of measured activities; the numbers were collected in NIAID ChemDB.

All rows: tests in culture; species: Candida tropicalis; endpoint: MIC

An empty or dashed field is not shown. Neighbouring rows are from separate reports.

SMILES,strain,read by,value
CCCCCCCCCCCCCC[C@@H]1CCCN1C,HT4614,-,12.5 µg/mL
CCCCCCCC/C=C\CCCCCCCC(=O)N[C@H](C(=O)N1C[C@H](C)C[C@H]1C(=O)N[C@H](C(=O)N[C@@H](CCO)C(=O)N[C@@H](C)CO)C(C)C)[C@@H](C)O,ATCC 750,broth dilution / visual reading,>32 µg/mL
Clc1ccc(C(Cn2ccnc2)NCc2ccc(-c3ccccc3)cc2)c(Cl)c1,CBS 94 CA 44 CA 29,-,2.8 µg/mL
CCCCCCCCSc1ccnc(C(N)=S)c1,156,-,>500 µM
Fc1ccc(C(Cn2ccnc2)NCc2ccc(-c3ccccc3)cc2)cc1,CBS 94 CA 44 CA 40,-,3.8 µg/mL
O/N=C\c1cccs1,-,-,3930 µM
CC(=O)OC1C(=O)N2CCCS(=O)C12c1ccccc1,CP/K92,-,20.47 µM
O=c1[nH][nH]c2c1C(c1ccc(F)cc1)CC(c1ccc3ccccc3c1)=C2,-,-,12.5 µg/mL
Nc1[nH]c(=O)ncc1F,Berkout KCCM 50662,-,0.8 µg/mL
O/N=C\c1ccccc1,-,-,4130 µM
CCC(C)Sc1ccnc(C(N)=S)c1,156,-,250 µM
Clc1ccc(C(Cn2ccnc2)NCc2cccc3ccccc23)c(Cl)c1,CBS 94 CA 44 CA 30,-,23.3 µg/mL
CC[C@@H]([C@H](C)O)n1ncn(-c2ccc(N3CCN(c4ccc(OC[C@@H]5CO[C@@](Cn6cncn6)(c6ccc(F)cc6F)C5)cc4)CC3)cc2)c1=O,8664,broth dilution,0.03 µg/mL
CCCCCCCCCCCCCCCC(=O)NC(CCCCN)C(=O)NC(CCCCN)C(N)=O,4867,broth dilution,2 µg/mL
O=C1C2=C(OC(CI)C2)C(=O)c2ccccc21,Clinical isolate,broth dilution,16 µg/mL
COC(=O)c1cc(O)c(O)c2oc3cc(OC)cc(O)c3c(=O)c12,ATCC 750,broth dilution,31.25 µg/mL
Fc1ccc(C(Cn2ccnc2)NC/C=C/c2ccccc2)cc1,CBS 94 CA 44 CA 49,-,53 µg/mL
O=c1[nH][nH]c2c1C(c1ccc(Cl)cc1)CC(c1ccc3ccccc3c1)=C2,-,-,12.5 µg/mL
O/N=C/c1ccc(O)cc1,-,-,7290 µM
O=C(CCn1ccnc1)c1cccc(C(O)c2ccc(Cl)c(Cl)c2)c1,RTCC 1095,broth dilution,32 µg/mL
Nc1scc2c1c(=O)oc1ccccc12,ATCC 750,broth dilution,16 µg/mL
CC(C)CSc1ccnc(C(N)=S)c1,156,-,>500 µM
O=C1C(OS(=O)(=O)c2ccc(Br)cc2)C(c2ccccc2)N1c1ccccc1,CP/K92,-,27.25 µM
COc1cc(O)c2c(c1)C(=O)c1c(cc3c(c1O)-c1c(cc(C)c(C(=O)NC(CO)C(=O)O)c1O)[C@H](OC1OC(C)C(O)C(OC4OCC(O)C(O)C4O)C1O)C3O)C2=O,Isolate 93-681 fluconazole-susceptible,-,8 µg/mL
OC(CCn1ccnc1)c1ccc(Br)cc1,RTCC 1095,broth dilution,>64 µg/mL
CC(=O)O[C@@H]1C(=O)N(c2ccc(C(=O)O)cc2)[C@H]1c1ccc2c(c1)OCO2,CP/K92,-,135.5 µM
CC(C)(C)Sc1ccnc(C(N)=S)c1,156,-,>500 µM
OC(CCn1ccnc1)c1cccc(C(O)c2ccc(Cl)c(Cl)c2)c1,RTCC 1065,broth dilution,>64 µg/mL
O/N=C\c1ccccc1Cl,-,-,1410 µM
CCOc1ccc2nc3cc(N=C4NC(=O)/C(=C\C=C\c5ccc([N+](=O)[O-])o5)S4)ccc3c(N)c2c1,ATCC 8302,broth dilution,500 µg/mL
Cc1nn2c(-c3ccncc3)nnc2sc1=NNc1ccc(Br)cc1,ATCC 66029,broth dilution,25 µg/mL
OC(CCn1ccnc1)c1cccc(C(O)c2ccc(Cl)cc2)c1,RTCC 1095,broth dilution,>64 µg/mL
C[C@@H]1C(=O)N(CCc2ccccc2)C(=O)[C@@H]1C,CCC 131-2000,broth dilution / turbidity,125 µg/mL
Clc1ccc(C(Cn2ccnc2)NC/C=C/c2ccccc2)c(Cl)c1,CBS 94 CA 44 CA 35,-,50 µg/mL
Cc1nn2c(-c3ccncc3)nnc2sc1=NNc1ccc(Cl)cc1,ATCC 66029,broth dilution,12.5 µg/mL
COc1cc(O)c2c(c1)C(=O)c1c(cc3c(c1O)-c1c(cc(C)c(C(=O)NC(CO)C(=O)O)c1O)[C@H](OC1OC(C)C(O)C(OC4OCC(O)C(O)C4O)C1O)C3O)C2=O,ATCC 750,-,6.25 µg/mL
CC1CC(=O)N(c2ccc(F)cc2)C1=O,CCC 131-2000,broth dilution / turbidity,250 µg/mL
CC(C)(O)c1cn(-c2ccc(Cl)cc2)nn1,URM 916,broth dilution,128 µg/mL
C[C@H]1[C@H](O)[C@@H](C)/C=C/C=C/C=C/C=C/C=C/C=C/C=C/[C@H](O[C@@H]2O[C@H](C)[C@@H](O)[C@H](N)[C@@H]2O)C[C@@H]2O[C@](O)(C[C@@H](O)C[C@@H](O)CC[C@H](O)[C@@H](O)C[C@@H](O)CC(=O)O[C@H]1C)C[C@H](O)[C@H]2C(=O)O,90874,broth dilution,0.06 µg/mL
O=C(O)c1ccc(C[C@H](C(=O)O)[C@@H](O)C(=O)O)cc1,KKP 334,-,>4 µg/mL
O=C(CCn1ccnc1)c1cccc(O)c1,RTCC 1065,broth dilution,>64 µg/mL
CC(=O)O[C@@H]1C(=O)N(c2ccc(C(=O)O)cc2)[C@H]1c1ccccc1,CP/K92,-,308 µM
CC1C(=O)N(c2ccccc2)C(=O)C1C,CCC 131-2000,broth dilution / turbidity,62.5 µg/mL
CS(=O)(=O)OC1C(=O)N(c2ccccc2)C1c1ccccc1,CP/K92,-,9.46 µM
COc1ccc(/C=N/O)cc1,-,-,1650 µM
C[C@H]1N(C(=O)c2ccc(C(F)(F)F)cc2)C[C@@H](O)O[C@@]1(Cn1cncn1)c1ccc(F)cc1F,Isolate 2,-,64 µg/mL
Cc1ccc(C(O)c2cccc(C(O)CCn3ccnc3)c2)cc1,RTCC 1095,broth dilution,>64 µg/mL
Nc1ncccc1-c1cc(Cc2ccc(COc3ccccn3)cc2)no1,8664,broth dilution,0.03 µg/mL
COc1ccc(C[C@H](N)C(=O)N[C@H]2[C@@H](O)[C@H](n3cnc4c(N)ncnc43)O[C@@H]2C(=O)O)cc1,FP-583,-,>100 µg/mL
CCSc1ccnc(C(N)=S)c1,156,-,500 µM
CCCCCCCCCCCCCCCCn1cc[n+](C)c1,94P,broth dilution,0.014 µg/mL
CC(=O)OC1C(=O)N(c2ccccc2)C1c1ccc2c(c1)OCO2,CP/K92,-,154 µM
Fc1ccc(C(Cn2ccnc2)NCc2cccc3ccccc23)cc1,CBS 94 CA 44 CA 31,-,32.2 µg/mL
CCCCCCCCCCCCSc1ccnc(C(N)=S)c1,156,-,>500 µM
CCCCCCCC/C=C\CCCCCCCC(=O)NCCCN,ATCC 750,broth dilution,128 µg/mL
CCC(C)CC(C)CCCCCCCCC(=O)N[C@H]1C[C@@H](O)[C@H](NCCN)NC(=O)[C@@H]2[C@@H](O)CCN2C(=O)[C@H]([C@H](O)CCN)NC(=O)[C@H]([C@H](O)[C@@H](O)c2ccc(O)cc2)NC(=O)[C@@H]2C[C@@H](O)CN2C(=O)[C@H]([C@@H](C)O)NC1=O,Clinical isolates,-,0.024 µg/mL
Cc1nn2c(-c3ccncc3)nnc2s/c1=N/Nc1ccccc1,ATCC 66029,broth dilution,25 µg/mL
Cc1ccc(C(O)c2cccc(C(=O)CCn3ccnc3)c2)cc1,RTCC 1065,broth dilution,>64 µg/mL

9 of the rows above, restated:

SMILES | strain | read by | value
O/N=C\c1cccs1 | - | - | 3930 µM
Nc1ncccc1-c1cc(Cc2ccc(COc3ccccn3)cc2)no1 | 8664 | broth dilution | 0.03 µg/mL
O=C1C(OS(=O)(=O)c2ccc(Br)cc2)C(c2ccccc2)N1c1ccccc1 | CP/K92 | - | 27.25 µM
O=C(CCn1ccnc1)c1cccc(O)c1 | RTCC 1065 | broth dilution | >64 µg/mL
Cc1nn2c(-c3ccncc3)nnc2sc1=NNc1ccc(Cl)cc1 | ATCC 66029 | broth dilution | 12.5 µg/mL
O=C1C2=C(OC(CI)C2)C(=O)c2ccccc21 | Clinical isolate | broth dilution | 16 µg/mL
CC(C)CSc1ccnc(C(N)=S)c1 | 156 | - | >500 µM
Cc1ccc(C(O)c2cccc(C(=O)CCn3ccnc3)c2)cc1 | RTCC 1065 | broth dilution | >64 µg/mL
CC[C@@H]([C@H](C)O)n1ncn(-c2ccc(N3CCN(c4ccc(OC[C@@H]5CO[C@@](Cn6cncn6)(c6ccc(F)cc6F)C5)cc4)CC3)cc2)c1=O | 8664 | broth dilution | 0.03 µg/mL